Data as given in PubChem BioAssay AID504761 (Drosophila RNAi Screening Center, 2011).
The screen tested about 22,000 reagents; this is a random part of those that have a named target and a result. In the full data, 116 (0.52%) are marked active. 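Calls depend on retest data that are not deposited; infection was ranked per plate without normalising between plates; the unit of the infection score is not given.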 Raw values are not corrected between plates. Names joined by + are all predicted targets of the reagent. The record does not give: the amount of reagent, the time to read-out.

Test: 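Insect host genes that dengue virus relies on to spread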 (primary screen)
System: D.Mel-2 cells from Drosophila
Reagents: long dsRNA against Drosophila genes
Challenge: infection with dengue virus type 2; dose and infection time not stated
Measurement: 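Cells stained for dengue envelope protein and imaged; percent of infected cells per well on duplicate plates, ranked by infection, with stained nuclei counted for cell number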
Direction: infection score: higher = more virus-infected cells; cell count: higher = more cells in the well
Hit rule: 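Low infection ranks in the two replicates (chance level up to 0.065) followed by a retest with a 1.5-fold or larger significant decrease, p below 0.05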
Meaning of the calls: active = confirmed: knock-down lowers infection; inactive = not picked or not confirmed

no.	gene knocked down	amplicon	infection score, replicate 1	infection score, replicate 2	cell count, replicate 1	cell count, replicate 2	Call
1	CG11123	DRSC06040	12.7	6.06	6983	874	inactive
2	CG11123	DRSC28420	15.7	15.6	5742	2679	inactive
3	CG31999	DRSC17131	3.89	23.4	1827	5744	inactive
4	CG31999	DRSC17133	0.73		684	295	inactive
5	CG14280	DRSC14761	2.71	2.8	6558	6284	inactive
6	CG12974	DRSC11684	5.98	2.28	6209	6355	inactive
7	CG13895	DRSC08365	1.85	0.9	5738	6410	inactive
8	CG13842	DRSC14692	0.73	4.22	6052	5883	inactive
9	Dhc98D (Dynein heavy chain at 89D)	DRSC16645	2	2.68	6047	6557	inactive
10	Dhc98D (Dynein heavy chain at 89D)	DRSC27784	3.37	8.14	6471	6557	inactive
11	Rcc1 (Regulator of chromosome condensation 1)	DRSC09684	11.1	15.6	4176	3735	inactive
12	Rcc1 (Regulator of chromosome condensation 1)	DRSC28981	9.1	9.93	2900	5660	inactive
13	feo (fascetto)	DRSC19398	38.4	6.96	6032	6579	inactive
14	feo (fascetto)	DRSC23773	1.43	2.89	5524	5060	inactive
15	CG30036	DRSC21334	4.42	14.5	5887	5346	inactive
16	CG2267	DRSC15435	2.68	12.7	1008	3616	inactive
17	Atg8a (Autophagy-related 8a)	DRSC18024	5.62	1.61	6231	6331	inactive
18	Atg8a (Autophagy-related 8a)	DRSC24298	11.4	7.68	4798	3749	inactive
19	CG14142	DRSC10145	4.83	5.57	6175	6426	inactive
20	CG14142	DRSC26658	5.1	1.68	6270	6122	inactive
21	CG31687 + Cdc23	DRSC23052	5.85	13.2	5603	6245	inactive
22	CG31517	DRSC13010	6.66	3.23	5717	6343	inactive
23	stwl (stonewall)	DRSC11400	7.6	7.02	6501	6236	inactive
24	stwl (stonewall)	DRSC23913	1.96	1.38	6273	6607	inactive
25	CG13675	DRSC23124	1.41	2.72	6468	7013	inactive
26	CG5808	DRSC14124	6.93	10.1	5298	4995	inactive
27	Sec20 (Secretory 20)	DRSC12295	2.69	6.31	5906	6513	inactive
28	Sec20 (Secretory 20)	DRSC29886	17.7	7.46	6259	6290	inactive

Next part, starting with the last 5 of the part before.
no.	gene knocked down	amplicon	infection score, replicate 1	infection score, replicate 2	cell count, replicate 1	cell count, replicate 2	Call
24	stwl (stonewall)	DRSC23913	1.96	1.38	6273	6607	inactive
25	CG13675	DRSC23124	1.41	2.72	6468	7013	inactive
26	CG5808	DRSC14124	6.93	10.1	5298	4995	inactive
27	Sec20 (Secretory 20)	DRSC12295	2.69	6.31	5906	6513	inactive
28	Sec20 (Secretory 20)	DRSC29886	17.7	7.46	6259	6290	inactive
29	miple2 (midkine and pleiotrophin 2)	DRSC08723	2.01	1.51	5914	5881	inactive
30	CG30015	DRSC05241	3.26	7.12	5921	5377	inactive
31	CG30015	DRSC07027	9.37	4.53	6006	6623	inactive
32	CG30015	DRSC07028	10.7	6.35	6810	2725	inactive
33	CG13231	DRSC06351	3.7	18.3	6811	6374	inactive
34	CG13231	DRSC26554	2.94	13.2	6507	5690	inactive
35	kis (kismet)	DRSC00521	15.2	10.4	6500	6837	inactive
36	kis (kismet)	DRSC00625	1.54	11.5	5661	5667	inactive
37	kis (kismet)	DRSC00823	9.55	6.38	4826	4857	inactive
38	CG4462	DRSC15583	1.74	10	6370	6526	inactive
39	CG4462	DRSC25650	4.99	14.6	7015	6578	inactive
40	CG33225	DRSC03881	0.16	0.05	6206	6010	inactive
41	CCT3 (Chaperonin containing TCP1 subunit 3)	DRSC16602	23.3	28.2	2837	2982	inactive
42	mrt (martik)	DRSC15484	4.36	6.21	5867	4589	inactive
43	mrt (martik)	DRSC29283	1.79	19.7	558	6291	inactive
44	CG32147	DRSC09346	2.97	2.28	5661	5604	inactive
45	CG32147	DRSC24225	4.16	2.21	6443	5922	inactive
46	dve (defective proventriculus)	DRSC04680	15	8.35	5349	1857	inactive
47	dve (defective proventriculus)	DRSC28692	7.81	8.26	5070	5195	inactive
48	CG13126	DRSC02222	5.33	5.66	6847	6642	inactive
49	CG13126	DRSC27620	21.4	3.35	6261	6662	inactive
50	Fum3 (Fumarase 3)	DRSC10592	0.73	1.69	6034	6453	inactive
51	Fum3 (Fumarase 3)	DRSC25432	10.9	3.22	6705	6214	inactive
52	pasha (partner of drosha)	DRSC15295	1.35	2.73	6215	6526	inactive
53	pasha (partner of drosha)	DRSC27821	12.3	9.18	6890	6384	inactive
54	Vdup1 (Vitamin D[[3]] up-regulated protein 1)	DRSC08586	2.5	4.24	6573	6627	inactive
55	CG2202	DRSC19841	7.64	2.68	6258	6414	inactive
56	CG2202	DRSC23452	3.73	3.06	6119	5689	inactive
57	CG9945	DRSC07347	1.84	1.09	5771	6393	inactive
58	CG9945	DRSC28885	7.28	14.2	5718	5419	inactive
